This assay addresses amyloid-β 40 (Aβ40). In words: cross-linking; PICUP (Ru(Bpy), APS, light 3 x 1 s) of Aβ40 (50 μM) incubated in bicine (20 mM) or PBS (1X) at 37°C for 2, 4 and 7 days; SDS-PAGE (10–20% tris-tricine), silver staining.

Where “and” joins values, the source holds several entries; their conditions need not be identical. Equal entries are not always repeated.

As to “amyloid-β 40 (Aβ40) (peptide; other documents disagree on this pair)”, the stoichiometry N was 2 and 3.
